Compound potency records, mixed from different reports. Data source: NIAID ChemDB in PubChem.

Common to all: whole-cell or culture tests; species: HIV-1; cell line: H9; read-out: EC50

Blank or dashed fields: not listed here. ECn: concentration that inhibits the pathogen or its effect by n%. Conditions beyond the fields shown may differ between rows.

| structure | strain or isolate | read by | conditions | value |
|---|---|---|---|---|
| CN(C)CCOc1ccc(C[C@H](C[C@H](O)[C@H](Cc2ccccc2)NC(=O)OC(C)(C)C)C(=O)N[C@H]2c3ccccc3C[C@H]2O)cc1 | IIIB | antigen |  | <0.4 µM |
| CCc1cc(NCc2nc3c(Cl)ccc(Cl)c3o2)c(=O)[nH]c1C | IIIB | p24 / ELISA |  | <0.2 µM |
| CCN1c2ncccc2-c2ncc(C)n2-c2ccc(=O)[nH]c21 | IIIB | p24 | 7 d | <0.11 µM |
| CC(C)(C)OC(=O)N[C@@H](Cc1ccccc1)[C@@H](O)C[C@@H](Cc1ccc(OCc2ccccc2)cc1)C(=O)N[C@H]1c2ccccc2C[C@H]1O | IIIB | p24 |  | <0.05 µM |
| O=C1OC(C2OC(=O)c3cc(O)c(O)c(O)c3-c3c(O)c(O)c4oc(=O)c5c(c(O)c(O)c6oc(=O)c3c4c65)-c3c(cc(O)c(O)c3O)C(=O)OCC2O)C2OC(=O)c3c(c(O)c(O)c(O)c3C2O)-c2c1cc(O)c(O)c2O | IIIB | p24 |  | 1 µg/mL |
| CCc1cc(NCc2nc3c(C)ccc(C)c3o2)c(=O)[nH]c1C | IIIB | p24 / ELISA |  | <0.15 µM |
| CC(C)[C@H](NC(=O)c1ccc2ccccc2n1)C(=O)N[C@@H](Cc1ccccc1)[C@H](O)CN1CC[C@@H](OCc2ccncc2)C[C@H]1C(=O)NC(C)(C)C | HXB2 | p24 |  | 0.001 µM |
| COc1cc(-c2oc3cc(O)cc(O)c3c(=O)c2O)ccc1O | IIIB | p24 / ELISA |  | 1.78 µg/mL |
| CC(C)(C)NC(=O)[C@@H]1C[C@@H]2CCCC[C@@H]2CN1C[C@@H](O)[C@H](Cc1ccccc1)NC(=O)[C@H](CC(N)=O)NC(=O)c1ccc2ccccc2n1 | IIIB | virus yield |  | 0.001 µg/mL |
| CCCCCCCCCC(=O)O |  | RT activity |  | >100 µM |
| Nc1nc2c(ncn2[C@H]2CC[C@@H](CO)O2)c(=O)[nH]1 | IIIB | p24 |  | 0.49 µM |
| CCN1c2ncccc2-c2nccn2-c2c(C)ccnc21 | IIIB | p24 | 7 d | <0.55 µM |
| CC(=O)O[C@@H]1[C@@H]2[C@@H](OC(C)=O)[C@@]34O[C@@]2(C)COC(=O)c2cccnc2[C@@H](C)[C@H](C)C(=O)O[C@@H]([C@H](OC(C)=O)[C@H](OC(C)=O)[C@@]3(COC(=O)c2ccoc2)[C@@H]1OC(C)=O)C4(C)O | IIIB | p24 |  | 0.1 µg/mL |
| CCc1cc(NCc2nc3c(Cl)ccc(Cl)c3o2)c(=O)[nH]c1C | IIIB | p24 |  | <0.2 µM |
| O=c1c(O[C@@H]2O[C@H](CO)[C@@H](O)[C@H](O)[C@H]2O)c(-c2ccc(O)cc2)oc2cc(O)cc(O)c12 | IIIB | p24 |  | 80 µg/mL |
| CCOc1ccc(Cc2nccc3cc(OCC)c(OCC)cc23)cc1OCC | IIIB | p24 |  | 8.04 µg/mL |
| CC(C)(C)OC(=O)N[C@@H](Cc1ccccc1)[C@@H](O)C[C@@H](Cc1ccc(OCCN2CCCCC2)cc1)C(=O)N[C@H]1c2ccccc2C[C@H]1O | IIIB | antigen |  | <0.4 µM |
| COc1cc2c(cc1OC)[C@H](O)[C@H]1COC(=O)[C@@H]1[C@@H]2c1cc(OC)c(OC)c(OC)c1 | IIIB | p24 |  | 0.389 µg/mL |
| CC1NCCc2cc(O)c(O)cc21 | IIIB | p24 |  | 0.117 µg/mL |
| COc1cc([C@@H]2c3cc4c(cc3[C@@H](O)[C@H]3COC(=O)[C@H]23)OCO4)cc(OC)c1O | IIIB | p24 |  | 0.057 µg/mL |
| CCCOCCCCCCCCCC(=O)O |  | RT activity |  | <100 µM |
| COc1ccc(Cc2cc3cc(OC)c(OC)cc3c[nH+]2)cc1OC | IIIB | p24 |  | >10.1 µg/mL |
| CC(=O)OC[C@]12[C@H](OC(C)=O)[C@H](OC(C)=O)[C@@H]3[C@@H](OC(C)=O)[C@@]14O[C@@]3(C)COC(=O)c1cccnc1CCC(C)(O)C(=O)O[C@@H]([C@H](OC(=O)c1ccoc1)[C@@H]2OC(C)=O)C4(C)O | IIIB | p24 |  | <0.1 µg/mL |
| CC(C)[C@H](NC(=O)c1ccc2ccccc2n1)C(=O)N[C@@H](Cc1ccccc1)[C@H](O)CN1CC[C@@H](OCc2ccncc2)C[C@H]1C(=O)NC(C)(C)C | HXB2 | p24 / ELISA / antigen |  | 0.001 µM |
| CC(=O)OC[C@]12[C@H](OC(C)=O)[C@H](OC(C)=O)[C@@H]3[C@@H](OC(C)=O)[C@@]14O[C@@]3(C)COC(=O)c1cccnc1CC[C@H](C)C(=O)O[C@@H]([C@H](OC(=O)c1ccccc1)[C@@H]2OC(C)=O)C4(C)O | IIIB | p24 |  | >100 µg/mL |
| O=C(O)c1cc(O)cc(O)c1N=Nc1ccc(/C=C/c2ccc(N=Nc3c(O)cc(O)cc3C(=O)O)cc2S(=O)(=O)O)c(S(=O)(=O)O)c1 | IIIB | RT activity | chronic infection | >100 µg/mL |
| CCSCCCCCCCCCCC(=O)O |  | RT activity |  | <10 µM |
| CC1(C)Oc2ccc3ccc(=O)oc3c2[C@@H](OC(=O)C23CCC(C)(C(=O)O2)C3(C)C)[C@H]1OC(=O)C12CCC(C)(C(=O)O1)C2(C)C |  |  |  | 0.0004 µM |
| CC(C)(C)OC(=O)N[C@@H](Cc1ccccc1)[C@@H](O)C[C@@H](Cc1ccccc1)C(=O)N[C@H]1c2ccccc2C[C@H]1O | IIIB | antigen |  | <0.4 µM |
| CC(C)(Cl)C(O)COc1c2ccoc2cc2oc(=O)ccc12 | IIIB | p24 |  | 2.25 µg/mL |
| CCOC(=O)c1ccc(N[C@@H]2c3cc(OC)c(OC)cc3[C@@H](c3cc(OC)c(O)c(OC)c3)[C@H]3C(=O)OC[C@@H]32)cc1 | IIIB | p24 |  | <0.001 µg/mL |
| O=c1c(O)c(-c2ccc(O)c(O)c2)oc2cc(O)cc(O)c12 | IIIB | p24 |  | 1.6 µg/mL |
| CCc1cc(NCc2nc3c(C)ccc(C)c3o2)c(=O)[nH]c1C | IIIB | p24 |  | <0.2 µM |
| Cc1cn([C@H]2C[C@H](N=[N+]=[N-])[C@@H](CO)O2)c(=O)[nH]c1=O | IIIB | p24 |  | <0.001 µg/mL |
| C[C@@H]1C[C@@H]([C@H](O)CC2CC(=O)NC(=O)C2)C(=O)[C@@H](C)C1 | IIIB | p24 |  | 0.1 µg/mL |
| Nc1ccn([C@H]2CC[C@@H](CO)O2)c(=O)n1 | HXB2D | p24 |  | 0.6 µM |
| COc1ccc(C(C)c2c3cc(OC)c(OC)cc3cc[n+]2C)cc1OC | IIIB | p24 |  | >100 µg/mL |
| O=c1[nH]cnc2c1ncn2[C@H]1CC[C@@H](CO)O1 | IIIB | p24 |  | 0.08 µM |
| CC(C)(C)OC(=O)N[C@@H](Cc1ccccc1)[C@@H](O)C[C@@H](Cc1ccc(OCCN2CCOCC2)cc1)C(=O)N[C@H]1c2ccccc2C[C@H]1O | IIIB | p24 |  | <0.006 µM |
| COc1cc([N+](=O)[O-])ccc1N[C@@H]1c2cc3c(cc2[C@@H](c2cc(OC)c(O)c(OC)c2)[C@H]2C(=O)OC[C@@H]21)OCO3 | IIIB | p24 |  | 0.012 µg/mL |
| CC1(C)Oc2ccc3ccc(=O)oc3c2[C@@H](OC(=O)C23CCC(C)(C(=O)O2)C3(C)C)[C@H]1OC(=O)C12CCC(C)(C(=O)O1)C2(C)C | IIIB | p24 |  | 0.000256 µM |
| COc1cc([C@@H]2c3cc4c(cc3[C@@H](Nc3ccc(NC(=O)C56CCC(C)(C(=O)O5)C6(C)C)cc3)[C@H]3COC(=O)[C@H]23)OCO4)cc(OC)c1O | IIIB | p24 |  | 0.0023 µg/mL |
| CCN1c2ncccc2-c2nccn2-c2ccc(N(C)C)nc21 | IIIB | p24 | 7 d | <0.041 µM |

Repeating the final 3 entries:

structure | strain or isolate | read by | conditions | value
CC1(C)Oc2ccc3ccc(=O)oc3c2[C@@H](OC(=O)C23CCC(C)(C(=O)O2)C3(C)C)[C@H]1OC(=O)C12CCC(C)(C(=O)O1)C2(C)C | IIIB | p24 |  | 0.000256 µM
COc1cc([C@@H]2c3cc4c(cc3[C@@H](Nc3ccc(NC(=O)C56CCC(C)(C(=O)O5)C6(C)C)cc3)[C@H]3COC(=O)[C@H]23)OCO4)cc(OC)c1O | IIIB | p24 |  | 0.0023 µg/mL
CCN1c2ncccc2-c2nccn2-c2ccc(N(C)C)nc21 | IIIB | p24 | 7 d | <0.041 µM